For one sequence, binding signal (% reduction of bound labeled gA6[14]) results are on record in PMC6459835, “The RNA binding activity of the first identified trypanosome protein with Z-DNA-binding domains”.

The target of the series is T1, RBP7910 WT (Trypanosoma brucei) (UniProt Q38AH3).
T1 sequence (looked up): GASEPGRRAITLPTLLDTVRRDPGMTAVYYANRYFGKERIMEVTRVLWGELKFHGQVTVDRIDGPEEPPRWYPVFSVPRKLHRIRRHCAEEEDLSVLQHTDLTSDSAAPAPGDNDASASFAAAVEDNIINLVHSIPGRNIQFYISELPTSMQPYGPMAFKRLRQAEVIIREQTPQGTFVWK
Description: competition with a labelled probe. The note with it: 10-fold molar excess vs labeled gA6[14], text calls it more efficient than pre-edited CYb; RBB50: 20 mM Tris-HCl pH 7.6, 50 mM KCl, 5 mM MgCl2, 10% glycerol, 1 mM DTT, plus 100 mM KCl and 20 U RNasin; 20 ul, 30 min, RT; recombinant protein; residues 9-189; protein details: N-terminal 6xHis (pET30-a); label: 32P (UTP body or 3' pCp), unlabeled as competitor; letters put together from the ….

The exact form of at least one protein or probe is not confirmed. Tags and fusion partners may be left off the protein sequences shown.

“GGGAAAUAUGUUUUUUCGUGUUAGAUUUUUGUUAUUUUUUUUAUUAUUUAGAAAUUUAUGUUGUCUUUUUA [CYb edited mRNA]”: the binding signal (% reduction of bound labeled gA6[14]) worked out at 30.
